Assay results published in publication PMC11545984, “1,3-Dipolar Cycloaddition of Nitrile Oxides and Nitrilimines to (−)-β-Caryophyllene: Stereoselective Synthesis of Polycyclic Derivatives and Their Biological Testing” (International Journal of Molecular Sciences, 2024).

tested on: influenza virus A/Puerto Rico/8/34 (H1N1); assay: Antiviral (cytoprotective) activity in MDCK cells, MTT; assay type: cell-based; details: not given

Structure (SMILES)	SI
NC12CC3CC(CC(C3)C1)C2 [Amantadine, reference compound]	4
CC1(C)C[C@H]2[C@H]1CC[C@]1(C)ON=C(c3ccc(Cl)cc3)[C@H]1CC[C@@]21CC(c2ccc(Cl)cc2)=NO1 [Compound 25, (3aR,6R,6aS,8aR,10aS)-3,3′-Bis(4-chlorophenyl)-8,8,10a-trimethyl-3a,4,5,6a,7,8,8a,9,10,10a-decahydro-4′H-spiro[cyclobuta [5,6]cyclonona [1,2-d]isoxazole-6,5′-isoxazole]]	12

same assay, conditions: selectivity index, ratio CC50/IC50

Structure (SMILES)	SI
C/C1=C\CC[C@@]2(CC(c3ccc(Cl)cc3)=NO2)[C@H]2CC(C)(C)[C@@H]2CC1 [Compound 16a, (1S,2R,9R,E)-3′-(4-Chlorophenyl)-6,10,10-trimethyl-4′H-spiro[bicyclo [7.2.0]undecane-2,5′-isoxazol]-5-ene]	13
C=C1CC[C@@H]2C(c3ccc(Cl)cc3)=NO[C@@]2(C)CC[C@@H]2[C@@H]1CC2(C)C [Compound 16b, (3aR,6aS,8aR,10aS)-3-(4-chlorophenyl)-8,8,10a-trimethyl-6-methylene-3a,5,6,6a,7,8,8a,9,10,10a-decahydro-4H-cyclobuta [5,6]cyclonona [1,2-d]isoxazole]	1
COc1ccc(C2=NO[C@]3(CC/C=C(\C)CC[C@@H]4[C@@H]3CC4(C)C)C2)cc1 [Compound 17a, (1S,2R,9R,E)-3′-(4-Methoxyphenyl)-6,10,10-trimethyl-4′H-spiro[bicyclo [7.2.0]undecane-2,5′-isoxazol]-5-ene]	5
C=C1CC[C@@H]2C(c3ccc(OC)cc3)=NO[C@@]2(C)CC[C@@H]2[C@@H]1CC2(C)C [Compound 17b, (3aR,6aS,8aR,10aS)-3-(4-methoxyphenyl)-8,8,10a-trimethyl-6-methylene-3a,5,6,6a,7,8,8a,9,10,10a-decahydro-4H-cyclobuta [5,6]cyclonona [1,2-d]isoxazole]	<2
CC1=CCCC2(CC(c3cc(Br)ccc3O)=NO2)C2CC(C)(C)C2CC1 [Compound 18a, 4-Bromo-2-((1S,2R,9R,E)-6,10,10-trimethyl-4′H-spiro[bicyclo [7.2.0]undecane-2,5′-isoxazol]-5-en-3′-yl)phenol]	5
C/C1=C\CC[C@@]2(CC(Br)=NO2)[C@H]2CC(C)(C)[C@@H]2CC1 [Compound 19a, (1S,2R,9R,E)-3′-Bromo-6,10,10-trimethyl-4′H-spiro[bicyclo [7.2.0]undecane-2,5′-isoxazol]-5-ene]	<2
C=C1CC[C@H]2C(Br)=NO[C@]2(C)CC[C@@H]2[C@@H]1CC2(C)C [Compound 19b, (3aR,6aS,8aR,10aR)-3-bromo-8,8,10a-trimethyl-6-methylene-3a,5,6,6a,7,8,8a,9,10,10a-decahydro-4H-cyclobuta [5,6]cyclonona [1,2-d]isoxazole]	<1
CC1=CCCC2(CC(C)=NN2c2ccccc2)C2CC(C)(C)C2CC1 [Compound 21a, (1S,2R,9R,E)-5′,6,10,10-Tetramethyl-2′-phenyl-2′,4′-dihydrospiro[bicyclo [7.2.0]undecane-2,3′-pyrazol]-5-ene]	4
C=C1CC[C@@H]2C(C)=NN(c3ccccc3)[C@@]2(C)CC[C@@H]2[C@@H]1CC2(C)C [Compound 21b, (3aS,6aS,8aR,10aS)-3,8,8,10a-tetramethyl-6-methylene-1-phenyl-1,3a,4,5,6,6a,7,8,8a,9,10,10a-dodecahydrocyclobuta [6,7]cyclonona [1,2-c]pyrazole]	<1
C/C1=C\CC[C@@]2(CC(c3ccccc3)=NN2c2ccccc2)[C@H]2CC(C)(C)[C@@H]2CC1 [Compound 22a, (1S,2R,9R,E)-6,10,10-Trimethyl-2′,5′-diphenyl-2′,4′-dihydrospiro[bicyclo [7.2.0]undecane-2,3′-pyrazol]-5-ene]	2
C=C1CC[C@H]2C(c3ccccc3)=NN(c3ccccc3)[C@]2(C)CC[C@@H]2[C@@H]1CC2(C)C [Compound 22b, (3aR,6aS,8aR,10aR)-8,8,10a-trimethyl-6-methylene-1,3-diphenyl-1,3a,4,5,6,6a,7,8,8a,9,10,10a-dodecahydrocyclobuta [6,7]cyclonona [1,2-c]pyrazole]	<3
COc1cccc(OC)c1C1=NN(c2c(Cl)cc(Cl)cc2Cl)[C@]2(CC/C=C(\C)CC[C@@H]3[C@@H]2CC3(C)C)C1 [Compound 23a, (1S,2R,9R,E)-5′-(2,6-Dimethoxyphenyl)-6,10,10-trimethyl-2′-(2,4,6-trichlorophenyl)-2′,4′-dihydrospiro[bicyclo [7.2.0]undecane-2,3′-pyrazol]-5-ene]	<2
C=C1CC[C@H]2C(c3c(OC)cccc3OC)=NN(c3c(Cl)cc(Cl)cc3Cl)[C@]2(C)CC[C@@H]2[C@@H]1CC2(C)C [Compound 23b, (3aR,6aS,8aR,10aR)-3-(2,6-dimethoxyphenyl)-8,8,10a-trimethyl-6-methylene-1-(2,4,6-trichlorophenyl)-1,3a,4,5,6,6a,7,8,8a,9,10,10a-dodecahydrocyclobuta [6,7]cyclonona [1,2-c]pyrazole]	>3
CC1(C)C[C@H]2[C@H]1CC[C@@]1(C)ON=C(Br)[C@@H]1CC[C@@]21CC(Br)=NO1 [Compound 28, (3aR,6R,6aS,8aR,10aR)-3,3′-Dibromo-8,8,10a-trimethyl-3a,4,5,6a,7,8,8a,9,10,10a-decahydro-4′H-spiro[cyclobuta [5,6]cyclonona [1,2-d]isoxazole-6,5′-isoxazole]]	<2
CC1(C)C[C@H]2[C@H]1CC[C@]1(C)[C@@H](CC[C@@]23CC(c2ccccc2)=NN3c2ccccc2)C(c2ccccc2)=NN1c1ccccc1 [Compound 29, (3aR,6R,6aS,8aR,10aR)-8,8,10a-trimethyl-1,2′,3,5′-tetraphenyl-2′,3a,4,4′,5,6a,7,8,8a,9,10,10a-Dodecahydro-1H-spiro[cyclobuta [6,7]cyclonona [1,2-c]pyrazole-6,3′-pyrazole]]	>5
COc1cccc(OC)c1C1=NN(c2c(Cl)cc(Cl)cc2Cl)[C@]2(CC[C@H]3C(c4c(OC)cccc4OC)=NN(c4c(Cl)cc(Cl)cc4Cl)[C@]3(C)CC[C@@H]3[C@@H]2CC3(C)C)C1 [Compound 30, (3aR,6R,6aS,8aR,10aR)-3,5′-Bis(2,6-dimethoxyphenyl)-8,8,10a-trimethyl-1,2′-bis(2,4,6-trichlorophenyl)-2′,3a,4,4′,5,6a,7,8,8a,9,10,10a-dodecahydro-1H-spiro[cyclobuta [6,7]cyclonona [1,2-c]pyrazole-6,3′-pyrazole]]	>5
CC(N)C12CC3CC(CC(C3)C1)C2 (stereo not shown) [Rimantadine, reference compound]	5
